# Experimental data taken from patent US20060003896A1, “Novel diterpenoid compounds imparting stress resistance to plants” (National Institute of Agrobiological Sciences, priority 2002, published 2006).
# Experiment: Quantification of endogenous amount of the active substance in tobacco leaves (HPLC)
structure (smiles),measurement,setting,value
"CC(/C=C/[C@@H]1[C@@]2(C)CCCC(C)(C)[C@@H]2CC[C@@]1(C)O)=C\CO [WAF-1, (11E,13E)-labda-11,13-diene-8α,15-diol]",endogenous content in leaves,"TMV-inoculated leaves cultured at 20° C., 48 hours",126±22 ng/g FW
same,endogenous content in leaves,"TMV-inoculated leaves cultured at 20° C., shortly after inoculation",26±6 ng/g FW
same,endogenous content in leaves,"TMV-inoculated leaves, 30° C. 48 hours then shifted to 20° C., 0 hours",43±9 ng/g FW
same,endogenous content in leaves,"TMV-inoculated leaves, 30° C. 48 hours then shifted to 20° C., 24 hours",189±45 ng/g FW
